Only a part is listed here, and it is no random draw. Some salts or complexes appear as unconnected parts, following the source record. Calls of active or inactive are those of the source.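 How the source made its calls: active means inhibition of 50% or more in the single-dose primary screen; inactive means inhibition below 50%.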

This passage reports inhibition results from PubChem BioAssay AID1430 (University of Pittsburgh Molecular Library Screening Center, 2008).

The assay has as its system hexokinase 1 [Trypanosoma brucei]. The experiment in a line: TbHK1 enzyme activity blockers – biochemical, G6PDH-coupled NADH absorbance, MLSCN library, primary screen (AID 1430). Conditions: recombinant TbHK1, G6PDH-coupled NADH A340; at 10 µM; active compounds read high.
The inhibition is the change of the read-out against control, counted positive when it falls. In the case of `Cc1ccccc1NP(C)(=O)Nc1ccccc1C`, the inhibition is inactive: 3.61%.
`CP(=O)(Nc1ccc2c(c1)OCCO2)Oc1ccccc1` (centres undefined): the inhibition was inactive: -1.28%.
With `CCOP(C)(=S)SCC(=O)NC(C)(CC)C(=O)O` (centres undefined) the figure was inactive: 0.857%; with `CP(=O)(Nc1ccc(SC(F)(F)F)cc1)Oc1ccc(F)cc1` (centres undefined), inactive: -8.16%.
On to `O=[N+]([O-])c1cc([N+](=O)[O-])c(NCC2CCS(=O)(=O)C2)c([N+](=O)[O-])c1` (centres undefined), for which the inhibition was inactive: -25.6%.
The figure for `Cc1cc(-c2cccc3ccccc23)c(C)cn1.O=[N+]([O-])c1cc([N+](=O)[O-])c(O)c([N+](=O)[O-])c1` is inactive: -37.9%.
The figure for `O=[N+]([O-])c1ccc(OP2(=O)COCCO2)cc1` (centres undefined) is inactive: -4.31%.
The figure for `COc1ccc(NP(C)(=O)Oc2ccccc2OC)cc1` (centres undefined) is inactive: -11.5%; for `CN(C)CCOC(=O)C(O)(c1ccccc1)C1CCCCC1` (centres undefined) it is inactive: 3.6%.
On to `COc1ccc(OP(C)(=O)Nc2cccc(Br)c2)cc1` (centres undefined), for which the inhibition is inactive: 1.7%.
`CCCCCOc1ccc(NP(C)(=O)Oc2ccc(Cl)cc2Cl)cc1` (centres undefined): the inhibition is inactive: -0.349%.
With `CP(=O)(Nc1ccccc1)Oc1ccc(F)cc1` (centres undefined), the inhibition is inactive: 3.06%.
With `CCN(CC)CCCOC(=O)C(O)(c1ccccc1)C1CCCCC1` (centres undefined) the figure was inactive: 7.81%; with `COc1ccc(OP(C)(=O)Nc2ccc(SC(F)(F)F)cc2)cc1` (centres undefined), inactive: -4.79%.
With `CCOC(=O)c1ccc(NP(C)(=O)Oc2ccc(F)cc2)cc1` (centres undefined) the figure was inactive: -8.2%; with `COc1ccc2c(c1O)-c1c(O)c(OC)cc3c1[C@H](C2)[N+](C)(C)CC3.O=[N+]([O-])c1cc([N+](=O)[O-])c([O-])c([N+](=O)[O-])c1[O-]`, inactive: -56.3%.
With `O=C(OCCN1CCN(CCOCc2ccccc2)CC1)C(O)(c1ccccc1)c1ccccc1` the figure was inactive: -8.42%.
With `O=C(OC1CN2CCC1CC2)c1ccc([N+](=O)[O-])cc1` (centres undefined), the inhibition is inactive: -6.63%.
The figure for `CC(C)c1ccc(OP(C)(=O)Nc2ccc(SC(F)(F)F)cc2)cc1` (centres undefined) is inactive: 3.66%.
The figure for `CP(=O)(Nc1ccccc1F)Oc1ccccc1` (centres undefined) is inactive: 6.85%.
The figure for `CCc1ccc(OP(C)(=O)O)cc1` is inactive: -4.78%; for `CP(=O)(Nc1ccccn1)Oc1ccccc1` (centres undefined) it is inactive: -0.552%.
For `COc1ccccc1OP(C)(=O)Nc1ccc(C)cc1C` (centres undefined), the inhibition was inactive: -2.55%.
With `Cc1c(NP(C)(=O)Oc2ccc(C(C)C)cc2)c(=O)n(-c2ccccc2)n1C` (centres undefined) the figure was inactive: -0.368%; with `O=[N+]([O-])c1cc([N+](=O)[O-])c(Nc2ccccn2)c([N+](=O)[O-])c1`, inactive: -17.9%; with `CN(C)CCOC(=O)C(O)(c1ccccc1)C1CCCC1` (centres undefined), inactive: -3.25%.
The figure for `COc1ccc(OP(C)(=O)Nc2ccccn2)cc1` (centres undefined) is inactive: -4.14%; for `COc1ccccc1OP(C)(=O)Nc1ccc(Br)cc1` (centres undefined) it is inactive: -13.4%; for `CP(=O)(Nc1ccc(Cl)cc1Cl)Oc1ccccc1` (centres undefined) it is inactive: -3.17%.
With `CP(=O)(OCCOc1ccccc1)OCCOc1ccccc1` the figure was inactive: -4.36%; with `Cc1nc2ccc3ccccc3c2o1.O=[N+]([O-])c1cc([N+](=O)[O-])c(O)c([N+](=O)[O-])c1`, inactive: -23.4%; with `COc1ccc(OP(C)(=O)Nc2ccccc2Br)cc1` (centres undefined), inactive: -1.22%.
In the case of `COc1ccccc1OP(C)(=O)Nc1ccc(C)c(C)c1` (centres undefined), the inhibition is inactive: 4%.
For `Cc1cc(C)cc(OP(C)(=O)Nc2cccc(C(F)(F)F)c2)c1` (centres undefined), the inhibition was inactive: 2.17%.
With `CP(=O)(OC12CC3CC(CC(C3)C1)C2)OC12CC3CC(CC(C3)C1)C2` the figure was inactive: -7.65%; with `CCOC(=O)c1ccc(NP(C)(=O)Oc2ccc(Cl)cc2)cc1` (centres undefined), inactive: 0.181%.
`CN(C)C(=O)c1c([N+](=O)[O-])cc([N+](=O)[O-])cc1[N+](=O)[O-]`: the inhibition was inactive: 5.17%.
With `CP(=O)(Nc1ccc(Cl)cc1)Oc1ccc(F)cc1` (centres undefined) the figure was inactive: 1.85%; with `COc1ccccc1OP(C)(=O)Nc1ccccc1Br` (centres undefined), inactive: 3.7%; with `CC(C)(C)c1ccc(OP(C)(=O)O)cc1`, inactive: 7.05%.
With `CP(=O)(Oc1ccccc1)N1CCOC1=O` (centres undefined) the figure was inactive: -5.56%; with `CCc1ccc(OP(C)(=O)Nc2cccnc2)cc1` (centres undefined), inactive: -0.238%.
The figure for `COc1ccccc1OP(C)(=O)Nc1c(C)n(C)n(-c2ccccc2)c1=O` (centres undefined) is inactive: 1.57%; for `O=C(OCCCN1CCCC1)C(O)(c1ccccc1)C1CCCCC1` (centres undefined) it is inactive: -1.35%.
With `CCN(CC)CC(O)COC(=O)C(O)(c1ccccc1)C1CCCCC1` (centres undefined), the inhibition is inactive: 4.5%.
As for `COc1ccc(OP(C)(=O)Nc2ccc(Br)cc2)cc1` (centres undefined), the inhibition is inactive: 34%.
The figure for `CP(=O)(Nc1ccccn1)Oc1ccc(Cl)cc1` (centres undefined) is inactive: -9.18%.
The figure for `CCOP(C)(=S)SCC(=O)NC(C)C(=O)O` (centres undefined) is inactive: 5.84%; for `CCOC(=O)c1ccc(NP(C)(=O)Oc2ccc(OC)cc2)cc1` (centres undefined) it is inactive: 2.66%; for `CP(=O)(NC(=O)Nc1ccccc1)Oc1ccccc1` (centres undefined) it is inactive: -2.44%.
With `CCc1ccc(OP(C)(=O)N2CCN(c3ccc([N+](=O)[O-])cc3)CC2)cc1` (centres undefined) the figure was inactive: -4.71%; with `Cc1cc(C)cc(OP(C)(=O)Nc2ccc(SC(F)(F)F)cc2)c1` (centres undefined), inactive: 1.71%.
As to `CP(=O)(Nc1ccc(SC(F)(F)F)cc1)Oc1ccc(Cl)cc1` (centres undefined), the inhibition was inactive: 6.7%.
The figure for `Cc1cccc(C)c1OP(C)(=O)Nc1ccc(SC(F)(F)F)cc1` (centres undefined) is inactive: -2.77%; for `CP(=O)(Oc1ccccc1)OC(c1ccccc1)C(F)(F)F` (centres undefined) it is inactive: -1.76%.
The figure for `COc1ccccc1OP(C)(=O)Nc1ccccc1` (centres undefined) is inactive: -0.579%; for `CP(=O)(Nc1ccccc1Br)Oc1ccccc1` (centres undefined) it is inactive: 2.51%; for `CP(=S)(Nn1cnnc1)Oc1ccccc1` (centres undefined) it is inactive: -1.08%.
The figure for `COc1ccccc1OP(C)(=O)Nc1cc(Cl)ccc1C` (centres undefined) is inactive: -10.4%.
For `COc1ccc(OP(C)(=O)Nc2cccc(F)c2)cc1` (centres undefined), the inhibition is inactive: -0.436%.
With `Cc1cc(C)cc(OP(C)(N)=O)c1` (centres undefined) the figure was inactive: 0.615%.
The figure for `CCOC(=O)c1ccc(NP(C)(=O)Oc2ccccc2)cc1` (centres undefined) is inactive: -3.02%; for `COc1ccccc1OP(C)(=O)Nc1ccc(C)cc1` (centres undefined) it is inactive: -5.85%.
Consider `Cc1ccc(NP(C)(=O)Oc2ccccc2)c(C)c1` (centres undefined), for which the inhibition is inactive: 2.4%.
With `CC(C)(C)c1ccc(OP(C)(=O)Nc2ccc(SC(F)(F)F)cc2)cc1` (centres undefined) the figure was inactive: 22.9%.
The figure for `Cc1cccc(C)c1OP(C)(N)=O` (centres undefined) is inactive: -3.09%.
Consider `O=[N+]([O-])c1ccc2c(c1)C=Nc1ccccc1O2`, for which the inhibition was inactive: -8.82%.
As for `CCN(CC)CCCOC(=O)C(O)(c1ccccc1)c1ccccc1`, the inhibition is inactive: -1.98%.
The figure for `Cc1cc(C)cc(OP(C)(=O)Nc2ccccn2)c1` (centres undefined) is inactive: 3.84%; for `CP(=O)(Nc1cccc(Br)c1)Oc1ccccc1` (centres undefined) it is inactive: -0.911%; for `Cc1ccc(C)c(NP(C)(=O)Oc2ccccc2)c1` (centres undefined) it is inactive: -6.87%.
Take `Cc1cc(C)cc(OP(C)(=O)Nc2ccc(C)cc2C)c1` (centres undefined): the inhibition is inactive: -4.88%.
The figure for `CCOC(=O)c1ccc(NP(C)(=O)Oc2cc(C)cc(C)c2)cc1` (centres undefined) is inactive: 37.5%.
With `COc1ccccc1OP(C)(=O)Nc1cccc(Br)c1` (centres undefined) the figure was inactive: -0.501%; with `CC1=NCCc2c1[nH]c1ccccc21.O=[N+]([O-])c1cc([N+](=O)[O-])c(O)c([N+](=O)[O-])c1`, inactive: -61.9%.
With `O=C(O)c1cccc(Nc2c([N+](=O)[O-])cc([N+](=O)[O-])cc2[N+](=O)[O-])c1` the figure was inactive: -51.4%; with `CCCOc1ccc(NP(C)(=O)Oc2ccc(Cl)cc2)cc1` (centres undefined), inactive: -9.01%; with `CP(=O)(Nc1ccc(SC(F)(F)F)cc1)Oc1ccccc1` (centres undefined), inactive: 7.11%.
Take `CN1CCCCC1COC(=O)C1(O)c2ccccc2CCc2ccccc21` (centres undefined): the inhibition was inactive: 8.78%.
With `COc1ccccc1OP(C)(=O)Nc1c(C)cccc1C` (centres undefined) the figure was inactive: -0.228%; with `O=[N+]([O-])c1cc([N+](=O)[O-])c(Nc2nnnn2CCO)c([N+](=O)[O-])c1`, inactive: -19.8%; with `CCOC(=O)C(CC)C1=NC(C)(C)Cc2ccccc21.O=[N+]([O-])c1cc([N+](=O)[O-])c(O)c([N+](=O)[O-])c1` (centres undefined), inactive: -39%.
The figure for `Cc1nc2ccc3ccccc3c2s1.O=[N+]([O-])c1cc([N+](=O)[O-])c(O)c([N+](=O)[O-])c1` is inactive: -25.2%; for `O=[N+]([O-])c1cc([N+](=O)[O-])c(-n2nnc3ccccc32)c([N+](=O)[O-])c1` it is inactive: -24.3%.
